A mixed list of measured activities; the numbers were collected in NIAID ChemDB.

All rows: toxicity to cultured cells; cells: MRC-5; read-out: CC50

Blank or dashed fields: not listed here. Neighbouring rows are from separate reports. CCn is the concentration with n% toxicity to the cells.

SMILES,method,result
CC(O)c1cn([C@@H]2O[C@H](CO)[C@@H](O)[C@@H]2O)c(=S)[nH]c1=O,,>213 µM
CO/N=C/c1ccc(OCCC2CCN(c3nc(OC)nc(OC)n3)CC2)cc1,neutral red,>0.1 µg/mL
Nc1nc2c(ncn2COC(CO)CCP(=O)(O)O)c(=O)[nH]1,visual reading,>3000 µM
C/C=C1/CN2CC[C@@H]1[C@](C)(O)c1[nH]c3ccccc3c1C2,MTT,33.3 µg/mL
C=Cc1cn([C@@H]2O[C@H](CO)[C@@H](O)[C@@H]2O)c(=S)[nH]c1=O,,>266.3 µM
CCO/N=C/c1ccc(OCCC2CCN(c3ccc(Cl)nn3)CC2)c(C)c1,neutral red,>0.1 µg/mL
Cc1cncc2ccc(C(=O)NCc3ccccc3OC(C)C)nc12,neutral red,2.4 µg/mL
CCO/N=C/c1cc(C)c(OCCCc2cc(C)no2)c(C)c1,visual reading,25 µg/mL
O=c1[nH]c(=S)n([C@@H]2O[C@H](CO)[C@@H](O)[C@@H]2O)cc1/C=C/c1ccccc1,,>213 µM
Clc1cccn2cc(-c3ccccc3)cc12,MTT,>500 µM
CCOP(=O)(CCCOCn1cnc2c(=O)[nH]c(N)nc21)OCC,visual reading,>2780 µM
C=Cc1cn([C@@H]2O[C@H](CO)[C@@H](O)[C@@H]2O)c(=S)nc1N,,>266.3 µM
CCO/N=C/c1ccc(OCCN2CCN(c3ccc(Cl)nn3)CC2)cc1,visual reading,>1 µg/mL
Cc1cn([C@@H]2O[C@H](CO)[C@@H](O)[C@@H]2O)c(=S)nc1N,,>264.9 µM
CCOC(=O)C1=NN(c2ccc(Cl)cc2)C2C3N(c4ccc(Cl)cc4)N=C(C(=O)OCC)N3c3ccccc3N12,resazurin,48.5 µM
Fc1cccc(-c2cc3ccccn3c2)c1,MTT,100 µM
C=CCO/N=C/c1cc(C)c(OCCCc2cc(C)no2)c(C)c1,visual reading,17 µg/mL
Nc1nc2c(ncn2CO[C@@H](CO)CCP(=O)(O)O)c(=O)[nH]1,visual reading,>3000 µM
CCO/N=C/c1ccc(OCC2CCCN(c3ccc(Cl)nn3)C2)cc1,visual reading,>1 µg/mL
CN(C)CCC(NCCNc1ccnc2cc(Cl)ccc12)c1ccccc1,fluorescence,0.027 µM
CCCCCCCCCCc1nccn(C(CO)OC(CO)CO)c1=O,MTT,93 µM
CCc1cn([C@H]2C[C@H](O)[C@@H](CO)O2)c(=S)[nH]c1=O,,>277.6 µM
COCC(CCP(=O)(O)O)OCn1cnc2c(=O)[nH]c(N)nc21,visual reading,>2362 µM
O=C(O)/C=C/c1cn([C@@H]2O[C@H](CO)[C@@H](O)[C@@H]2O)c(=S)[nH]c1=O,,>213 µM
OC[C@H]1OC(c2c(-c3ccccc3)cc3c(Cl)cc(C(F)(F)F)cn23)[C@H](O)[C@@H]1O,MTT,172 µM
Nc1nc(=S)n([C@@H]2O[C@H](CO)[C@@H](O)[C@@H]2O)cc1/C=C/Br,,>213 µM
C/C=C1\CNCCC1[C@@](C)(O)c1cc2ccccc2[nH]1,MTT,40.8 µg/mL
CCO/N=C(\CC)c1ccc(OCCC2CCN(c3ccc(Cl)nn3)CC2)cc1,visual reading,>1 µg/mL
COc1ccc2c(c1)[C@@H]1C[C@]1(C(=O)N1[C@@H]3CC[C@H]1CN(C)C3)Cn1c-2c(C2CCCCC2)c2ccc(C(=O)NS(=O)(=O)N(C)C)cc21,resazurin,16 µM
CCCO/N=C/c1ccc(OCCC2CCN(c3ccc(Cl)nn3)CC2)cc1,visual reading,>1 µg/mL
Fc1ccc2cc(-c3ccccc3)cn2c1,MTT,>500 µM
CC(=O)O[C@@H]1C2C(C)(C)C(=O)C=C[C@]2(C)C2CC[C@@]3(C)[C@H](c4ccoc4)OC(=O)[C@H]4O[C@]43C2[C@H]1OC(C)=O,resazurin,>185 µM